Tests used:
[1] = tested on: boar sperm; assay: Boar sperm motility inhibition (BSMI) assay, ex vivo; settings: for Ex Vivo BSMI 1–3d, toxic (+) / nontoxic (−), microbial metabolites: mycotoxins and fungal metabolites; for EC50 Ex Vivo BSMI 1–3d: pure substances, 1–3 d of exposure, triplicate
[2] = tested on: PK-15 (porcine kidney epithelial cells) and/or FFL (feline fetus lung cells); assay: Inhibition of cell proliferation (ICP) assay, PK-15 and/or FFL; settings: for In Vitro ICP 2d, toxic (+) / nontoxic (−), microbial metabolites: mycotoxins and fungal metabolites; for EC50 In Vitro ICP 2d: pure substances, PK-15 and/or FFL, triplicate

Satratoxin G
Ex Vivo BSMI 1–3d, toxic (+) / nontoxic (−), microbial metabolites [1]: (−)
EC50 Ex Vivo BSMI 1–3d [1]: 5 μg mL^–1
In Vitro ICP 2d, toxic (+) / nontoxic (−), microbial metabolites [2]: (+) (For the microbial metabolites, EC50 < 5 µg mL^−1 and <10 µg mL^−1 were considered as toxic in the BSMI and ICP assays, respectively)
EC50 In Vitro ICP 2d [2]: 0.0009 μg mL^–1

CC(=O)OC[C@]12C[C@H](OC(=O)CC(C)C)C(C)=C[C@H]1O[C@@H]1[C@H](O)[C@@H](OC(C)=O)[C@@]2(C)[C@]12CO2
Ex Vivo BSMI 1–3d, toxic (+) / nontoxic (−), microbial metabolites [1]: (−)
In Vitro ICP 2d, toxic (+) / nontoxic (−), microbial metabolites [2]: (+) (For the microbial metabolites, EC50 < 5 µg mL^−1 and <10 µg mL^−1 were considered as toxic in the BSMI and ICP assays, respectively)
EC50 In Vitro ICP 2d [2]: 0.0023 μg mL^–1

CC1=C[C@H]2O[C@@H]3C[C@H]4OC(=O)/C=C\C=C\[C@H]([C@@H](C)O)OCC[C@@H](C)[C@H](O)C(=O)OC[C@@]2(CC1)[C@]4(C)[C@]31CO1
Ex Vivo BSMI 1–3d, toxic (+) / nontoxic (−), microbial metabolites [1]: (−)
EC50 Ex Vivo BSMI 1–3d [1]: > 1 μg mL^–1
In Vitro ICP 2d, toxic (+) / nontoxic (−), microbial metabolites [2]: (+) (For the microbial metabolites, EC50 < 5 µg mL^−1 and <10 µg mL^−1 were considered as toxic in the BSMI and ICP assays, respectively)
EC50 In Vitro ICP 2d [2]: 0.0007 μg mL^–1

CC1=C[C@H]2O[C@@H]3C[C@H]4OC(=O)/C=C\C=C\C(=O)OCC[C@@H](C)[C@H](O)C(=O)OC[C@@]2(CC1)[C@]4(C)[C@]31CO1
Ex Vivo BSMI 1–3d, toxic (+) / nontoxic (−), microbial metabolites [1]: (−)
EC50 Ex Vivo BSMI 1–3d [1]: 5 μg mL^–1
In Vitro ICP 2d, toxic (+) / nontoxic (−), microbial metabolites [2]: (+) (For the microbial metabolites, EC50 < 5 µg mL^−1 and <10 µg mL^−1 were considered as toxic in the BSMI and ICP assays, respectively)
EC50 In Vitro ICP 2d [2]: 0.0006 μg mL^–1
